{"source": "PubChem BioAssay AID540268", "about": "(Broad Institute, 2011)", "test_system": "Plasmodium falciparum 3D7 growth, plate reader", "assay": "reduced viability of parasite-Hsp90 expressing yeast – ATP luminescence, 48 h, cherry-picked samples, anti-malarial Hsp90 inhibitor project, dose response (AID 540268)"}
{"smiles": "CC(=O)OC1C(=O)OCC23CCC4(C)OC4C2OC2CC(OC(=O)C=CC=CC(=O)OCCC1C)C3(C)C21CO1", "note": "(stereo unspecified)", "values": [{"measurement": "AC50", "result": 4.28, "unit": "µM"}]}
